Among the data in article PMC5357622, “Chelation Motifs Affecting Metal-dependent Viral Enzymes: N′-acylhydrazone Ligands as Dual Target Inhibitors of HIV-1 Integrase and Reverse Transcriptase Ribonuclease H Domain” (Frontiers in Microbiology, 2017) are IC50 values, retold here.

The target in the experiment is T1, HIV-1 RT-associated RNase H (Human immunodeficiency virus type 1 group M subtype B, UniProt P03366).
T1 construct: Human immunodeficiency virus type 1 heterodimeric RT was expressed and purified; made in house
The experiment in a line: HIV-1 RT-associated RNase H assay (fluorescent RNA/DNA hybrid). In kind it is biochemical. Here is the method:
Human immunodeficiency virus type 1 heterodimeric RT was expressed and purified as previously described ([Esposito et al., 2011]; [Meleddu et al., 2014]). The HIV-1 RT-associated RNase H activity was measured as described ([Corona et al., 2014a]; [Meleddu et al., 2015]). Briefly, 20 ng of HIV-1 RT was incubated in 100 μL reaction volume containing 50 mM Tris-HCl (pH 7.8), 6 mM MgCl2, 1 mM DTT, 80 mM KCl, hybrid RNA/DNA (5′-[…]-3′-Fluorescein, 5′-[…]-3′-Dabcyl) and 2 nM RT. The reaction mixture was incubated for 1 h at 37°C; the reaction was stopped by addition of EDTA and products were measured with a Victor 3 (Perkin Elmer model 1420-051) equipped with filters for 490/528 nm (excitation/emission wavelength).

pIC50: −log10 of the molar value.

As a reminder, the pIC50 is −log10 of the IC50, conventionally taken in molar units. Read a high pIC50 as a small IC50. For `Cc1nnc(C(=O)NC(C)(C)c2nc(C(=O)NCc3ccc(F)cc3)c(O)c(=O)n2C)o1` [RAL, raltegravir, reference compound], the pIC50 is below 4.30.
